Data set [1] relates to HCV Con1 subgenomic replicon of genotype 1b (GS4.1 cells). Nature of the data set: HCV Replicon ELISA Assay. The conditions noted are these: for EC50: GS4.1 cells, 72 hr, NS4A ELISA; for IC50: Tables 1 and 2, from % inhibition versus concentration data. The class given is cell-based, HCV genotype 1b. In general terms: Replicon systems follow genome replication, usually without infectious particles.

The test system of data set [2] is Huh-7 cells containing HCV Con1 subgenomic replicon (GS4.1 cells). As to the kind of experiment: Cytotoxicity (CC50) reported with the HCV replicon ELISA assay. The note with it: Tables 1 and 2.
The test system of data set [3] is Huh-7-derived cell line (Zluc) that harbors an HCV genotype 1b replicon and a luciferase reporter gene. Nature of the data set: HCV Replicon Assay in Human Serum. Format: cell-based. The conditions noted are these: Zluc cells, 10% fetal bovine serum (reference), three days.

One may read the EC50 as the concentration at which the effect is half-maximal. Lower therefore signals greater potency. A word on the IC50: it is the point on the concentration scale where inhibition reaches its midpoint. Low readings indicate higher potency, high ones lower potency. In general, CC50 refers to the concentration that lowers cell viability or growth by half. Lower therefore signals harm at low concentration. In data set [1], “5-Thiazolecarboxylic methyl ester, 4-N-[(2,4-dimethyl-phenyl)-phosphonamidate methyl ester]-2-[4-chloro-phenyl]” showed an EC50 above 8.3 µM and an IC50 of 0.1 to 8.3 µM. In data set [2], this molecule registered a CC50 above 8.3 µM.

On to `COP(=O)(Nc1nc(-c2ccc(-c3cc4ccccc4o3)cc2)sc1C(=O)O)c1ccc(C)cc1C` (centres unmarked), for which, in data set [1], the EC50 is below 0.1 µM and the IC50 is below 0.1 µM. This molecule yielded a half-maximal cytotoxic concentration (CC50) in data set [2] of 0.1 to 8.3 µM.

Regarding `COP(=O)(Nc1nc(-c2ccc(-c3cc4ncccc4o3)cc2)sc1C(=O)O)c1ccc(C)cc1C` (centres unmarked), in data set [1], the EC50 was below 0.1 µM and the IC50 was below 0.1 µM. This molecule gave an EC50 in data set [3] below 0.1 µM. The molecule further returned a CC50 in data set [2] above 8.3 µM.

In data set [1], `COc1ccc(-c2nc(NP(=O)(OC)c3ccc(C)cc3C)c(C(=O)O)s2)cc1` (centres unmarked) came in with an EC50 above 8.3 µM and an IC50 of 0.1 to 8.3 µM. In data set [2], this molecule had a CC50 above 8.3 µM.

As for `COP(=O)(Nc1nc(-c2ccccc2)sc1C(=O)O)c1ccc(C)cc1C` (centres unmarked), in data set [1], the EC50 was above 8.3 µM and the half-inhibitory concentration (IC50) is 0.1 to 8.3 µM. Also, the CC50 in data set [2] is above 8.3 µM.

In data set [1], `COP(=O)(Nc1nc(-c2ccc(-c3cc4ncccn4n3)cc2)sc1C(=O)O)c1ccc(C)cc1C` (centres unmarked) had an EC50 below 0.1 µM and an IC50 below 0.1 µM. The molecule also registered an EC50 in data set [3] below 0.1 µM. Besides, the CC50 in data set [2] was above 8.3 µM.

The values above are taken from US8193372B2, “Phosphothiophene and phosphothiazole HCV polymerase inhibitors” (Idenix Pharmaceuticals, Inc., priority 2009, dated 2012).
